Record: PubChem BioAssay AID624099 (ICCB-Longwood, 2012)

Aim: 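Knock-downs relieving repression by E2 of an HPV18 LCR luciferase reporter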 (primary screen)
Cell system: human C33A cervical carcinoma cells (HPV-negative) stably expressing BPV1 E2 and an HPV18 LCR luciferase reporter
Knock-down reagent: siRNA pool against human genes, 40 nM
Duration: 72 h
Measured: 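Per-well luciferase luminescence, z-scored on each plate against the plate mean and SD with control wells left out, then averaged across three replicate plates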
Direction: mean z-score and z-score: higher = stronger reporter signal, weaker E2 silencing
Active means: 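Hit if mean z-score reaches 2 and two or more of three replicate z-scores also reach 2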
This is a random part of about 21,000 deposited reagents. 497 of them (2.4%) were called active. 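Higher z means weaker E2 silencing; only reporter increases were scored, and knock-downs that hurt cell survival may mask genuine repressor factors.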

LOC402693 (retired record): mean z-score = -0.15; z-score, replicate A = 0.34; z-score, replicate B = -0.29; z-score, replicate C = -0.49; Outcome = inactive
CCDC80: mean z-score = -1.78; z-score, replicate A = -1.27; z-score, replicate B = -2.09; z-score, replicate C = -1.98; Outcome = inactive
SP8: mean z-score = 2.41; z-score, replicate A = 2.16; z-score, replicate B = 2.68; z-score, replicate C = 2.4; Outcome = active
ZNG1A: mean z-score = -0.22; z-score, replicate A = -0.8; z-score, replicate B = 0.13; z-score, replicate C = 0.01; Outcome = inactive
SIX5: mean z-score = 0.68; z-score, replicate A = 1.05; z-score, replicate B = 1.04; z-score, replicate C = -0.04; Outcome = inactive
ENTPD7: mean z-score = 1.84; z-score, replicate A = 2.08; z-score, replicate B = 1.7; z-score, replicate C = 1.73; Outcome = inactive
DRC11: mean z-score = -0.08; z-score, replicate A = 0.23; z-score, replicate B = -0.08; z-score, replicate C = -0.38; Outcome = inactive
ABCB9: mean z-score = -0.58; z-score, replicate A = -0.41; z-score, replicate B = -0.58; z-score, replicate C = -0.77; Outcome = inactive
ARAP3: mean z-score = 0.72; z-score, replicate A = 0.94; z-score, replicate B = 0.38; z-score, replicate C = 0.85; Outcome = inactive
SEMA3G: mean z-score = -0.45; z-score, replicate A = -0.54; z-score, replicate B = -0.43; z-score, replicate C = -0.38; Outcome = inactive
KCNIP2: mean z-score = 1.43; z-score, replicate B = 1.45; z-score, replicate C = 1.41; Outcome = inactive
CACNA1I: mean z-score = 0.13; z-score, replicate A = 0.29; z-score, replicate B = 0.09; z-score, replicate C = 0.01; Outcome = inactive
MLX: mean z-score = -1.08; z-score, replicate A = -1.03; z-score, replicate B = -0.91; z-score, replicate C = -1.32; Outcome = inactive
RBM10: mean z-score = -1.27; z-score, replicate A = -1.03; z-score, replicate B = -1.41; z-score, replicate C = -1.37; Outcome = inactive

Called active, among the entries above:
SP8: mean z-score = 2.41; z-score, replicate A = 2.16; z-score, replicate B = 2.68; z-score, replicate C = 2.4; Outcome = active
